Experimental data taken from patent US8674085B2, “2′-branched nucleosides and Flaviviridae mutation” (priority 2002, dated 2014).

Tested on: BVDV I-N-dIns β-D-2′-CH3-riboC-R (β-D-2′-CH3-riboC-resistant BVDV)
Assay: BVDV virus yield reduction assay in de novo-infected MDBK cells
Assay type: cell-based, bovine viral diarrhea virus
Protocol: To conduct the virus focus assay, MDBK cells were seeded onto 6-well plates containing 2×10^5 cells per well and grown at 37° C./5% CO2 for at least 5 hours before use. The test samples (culture supernatants combined with cell monolayers) were frozen/thawed twice, serially diluted by 10-fold in medium, and used to inoculate test cells in 6-well plates at 0.2 mL per well. The inoculum was removed after 1 hour of adsorption, and the cells were overlaid with 3 mL of 0.5% agarose in complete growth medium (1× DMEM (Cellgro), supplemented with 8% horse serum, penicillin, streptomycin, L-glutamine, sodium pyruvate, and 25 mM HEPES). After 3 days of incubation at 37° C./5% CO2, the plates were fixed for 1 hour with 3 mL of 7.4% formaldehyde in PBS, and washed with PBS. […] Virus titers were calculated in FFU/mL, using the following equation: TFFU/mL=N×5×D; where T is a virus titer in FFU/mL; N is a number of foci per well; and D is a dilution factor for the corresponding virus sample. […]
To conduct the virus yield reduction assay, MDBK cells were seeded onto 24-well plates (1×10^5 cells per well) and grown at 37° C./5% CO2 overnight. […] The virus titer in the cell culture was quantified by focus assay as described above. […]

Which results are given for “Interferon alpha-2b: Intron-A (interferon alpha-2b) by Schering [reference compound]”?
maximum reduction in the viral yield (I-N-dIns β-D-2′-CH3-riboC-R variant virus): ~4 log; times more sensitive than the wild type BVDV (based on comparison of the EC90 values): approximately 40 times
